Eight compounds from PMC12590632, “Identification and characterization of a nonpeptidic cyclophilin ligand with antiviral activity against feline and porcine α-coronaviruses” (Veterinary Research, 2025) can be followed below.

Protein sequences, listed by entry. Tags and fused reporters are not part of them.
UniProt P62937, whole entry: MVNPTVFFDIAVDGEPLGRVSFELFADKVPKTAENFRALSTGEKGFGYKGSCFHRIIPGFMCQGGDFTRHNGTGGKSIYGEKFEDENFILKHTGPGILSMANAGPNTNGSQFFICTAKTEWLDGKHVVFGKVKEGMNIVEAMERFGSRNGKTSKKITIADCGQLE

The target of the first test is Human cyclophilin A (Homo sapiens, UniProt P62937). In words: PPIase enzyme assay (chymotrypsin-coupled). Format: biochemical. The conditions noted are these: read-out: IC50 of PPIase, 20 °C, mean ± SD of two or more experiments.
For orientation: IC50 means the point on the concentration scale where inhibition reaches its midpoint. With `COc1ccc(OC)c(C(NC(=O)NCc2ccc(N)cc2)C(=O)N2CCCC2c2cccc3ccsc23)c1` (centres unmarked), the IC50 is 1.5 µM.

For `CSc1ccccc1C1CCCN1C(=O)C(NC(=O)NCc1ccc(N)cc1)c1cccs1` (centres unmarked), the IC50 is over 10 µM.

In the case of `CSc1ccccc1C1CCCN1C(=O)C(NC(=O)NCc1cccc2ncccc12)c1ccccc1` (centres unmarked), the IC50 was over 10 µM.

With `CSc1ccccc1C1CCCN1C(=O)C(NC(=O)NCc1ccc(N)cn1)c1ccccc1` (centres unmarked), the IC50 amounted to 6.9 µM. Take `CCOc1cccc(C(NC(=O)NCc2ccc(N)cc2)C(=O)N2CCCC2c2ccccc2SC)c1` (centres unmarked): the IC50 was found to be 1 µM.

The next test has as its system FIPV (strain 79-1146) in CRFK cells. In words: SMCypI screening for FIPV infection, viral titre by end-point dilution. Format: cell-based, feline infectious peritonitis virus. The conditions noted are these: 50 µM SMCypI, MOI 1, 24 h.
Turning to `COc1cc(OC)c(C(NC(=O)NCc2ccc(N)cc2)C(=O)N2CCCC2c2ccccc2SC)cc1Br` (centres unmarked), the “Inhibition of FIPV titre” value is “low antiviral potency”. As to `CSc1ccccc1C1CCCN1C(=O)C(NC(=O)NCc1ccc(N)cc1)C1CCCCC1` (centres unmarked), the “Inhibition of FIPV titre” value was “low antiviral potency”.

As to `CSc1ccccc1C1CCCN1C(=O)C(NC(=O)NCc1ccc(N)cc1)c1ccccc1` (centres unmarked), the “Inhibition of FIPV titre” value is “low antiviral potency”.
